Test system: V. paradoxus CL14
Test: LC–MS/MS metabolomics on Variovorax IAA degradation
Assay type: cell-based, Variovorax paradoxus CL14
Settings: for detection of the isotopologue in the metabolomics data set (note in the name column): 13C6 isotopologue; for consumption by V. paradoxus CL14: detected in media controls, LC–MS/MS of cultures in M9 minimal medium; for detection of the metabolite (annotation in name column): all samples

O=C(O)C[C@H](NC(=O)Cc1c[nH]c2ccccc12)C(=O)O [indole-3-acetyl-L-aspartic acid (IAAsp)___13C6]
detection of the isotopologue in the metabolomics data set (note in the name column): indole-3-acetyl-L-aspartic acid (IAAsp) (not detected)

O=C(O)CC1(O)C(=O)Nc2ccccc21 (centres unmarked) [DOAA, dioxindole-3-acetic acid]
consumption by V. paradoxus CL14: completely consumed

Nc1ccc(C(=O)O)cc1 [4-aminobenzoic acid___13C6]
detection of the metabolite (annotation in name column): 4-aminobenzoic acid and/or isomer(s) (not detected)

O=C(O)Cc1c(O)[nH]c2ccccc12 [2-hydroxyindole-3-acetic acid]
consumption by V. paradoxus CL14: completely consumed

OCCc1c[nH][13c]2[13cH][13cH][13cH][13cH][13c]12 [indole-3-ethanol___13C6]
detection of the isotopologue in the metabolomics data set (note in the name column): indole-3-ethanol (not detected)

O=C(O)Cc1c[nH]c2ccccc12 [IAA, indole-3-acetic acid]
consumption by V. paradoxus CL14: completely consumed

O=C(O)CCCc1c[nH]c2ccccc12 [indole-3-butyric acid (IBA)___13C6]
detection of the isotopologue in the metabolomics data set (note in the name column): indole-3-butyric acid (IBA) (not detected)

Oc1ccccc1O [catechol___12C]
detection of the metabolite (annotation in name column): catechol (not detected)

Source: PMC9613470, “Diverse MarR bacterial regulators of auxin catabolism in the plant microbiome” (Nature Microbiology, 2022)
